Data published in paper PMC10304164, “Laurequinone, a Lead Compound against Leishmania” (Marine Drugs, 2023).

Experiments:
[1] = test system: Leishmania amazonensis promastigotes; experiment: Alamar Blue assay against promastigotes; type: cell-based; conditions: CC50 murine macrophages / IC50 promastigotes
Description: Leishmania amazonensis (MHOM/BR/77/LTB0016) promastigotes were cultured in RPMI 1640 medium (Gibco, Waltham, MA, USA), supplemented with 10 % FBS at 26 °C. Additionally, for maintenance, the promastigotes were cultured in SND medium (Sigma-Aldrich, Darmstadt, Germany) supplemented with 10 % FBS at 26 °C. Both media were supplemented with gentamicin at 10 µg/mL.
Compounds 1–5 were tested against promastigotes of Leishmania amazonensis using the colorimetric assay based on the Alamar Blue® reagent. In a 96-well plate, serial dilutions of the compounds and the promastigote form of the parasite (10^6 cells/mL) were added at a final volume of 200 µL.

[2] = test system: L. amazonensis intracellular amastigotes; experiment: Alamar Blue assay against intracellular amastigotes in murine macrophages; type: cell-based, Leishmania amazonensis; conditions: CC50 murine macrophages / IC50 amastigotes
Description: Briefly, in a 96-well plate, murine macrophages (2 × 10^5 cells/mL) were incubated in RPMI medium at 37 °C and 5 % CO2 atmosphere for 2–4 h. Promastigote forms of L. amazonensis (2 × 10^6 cells/mL) were added to reach a 1:10 macrophage:parasite ration, and after 24 h of incubation, the cells were washed to discard the not-introduced parasites. Serial dilutions of the compound were added in 100 µL of RPMI medium. Following 24 h of incubation, the plate was washed, and the cells were broken with SDS 0.05% for 30 s. Fresh medium was added, and 48 h later, 10% Alamar Blue® reagent was added.

SMILES	SI (promastigotes) [1]	SI (amastigotes) [2]
Cc1ccc([C@]2(C)CC[C@@H]3C[C@@]32C)c(O)c1 [Debromolaurinterol (3), debromolaurinterol]	5.6	2.9
CC1=CC(=O)C([C@]2(C)CC[C@@H]3C[C@@]32C)=CC1=O [Laurequinone (1), laurequinone]	22.5	2.5
CCCCCCCCCCCCCCCCOP(=O)([O-])OCC[N+](C)(C)C [Miltefosine, miltefosine, reference compound]	11.1	23.2
